For this experiment, the target named is YaxB_(12-343), modified second monomer, Yersinia enterocolitica. The experiment can be described thus: negative-stain EM of the YaxAB_dN-C8 oligomer.

Regarding YaxA_(45-410), modified first monomer, the result is given as “binds”.
